# Measured values published in article PMC5775428, “Towards an experimental classification system for membrane active peptides” (Scientific Reports, 2018).
# Key:
# [1] = Far-UV CD, percent helicity with DMPC LUVs; format: physicochemical; conditions: CD [θ]222 nm, 40 μM peptide + DMPC LUVs, 2016 dataset
# [2] = DSC of 2:1 DMPC:DMPG LUVs with peptide; conditions: for Tm_broad_pcpg, transition temperature of broad component: 0.5 mM 2:1 DMPC:DMPG LUVs + 20 μM peptide (4 mol%), pH 7.4, 2016 dataset; for H_broad_pcpg, transition enthalpy of broad component / H_sharp_pcpg, transition enthalpy of sharp component / Hv_broad_pcpg, van´t Hoff transition enthalpy of broad component / Hv_sharp_pcpg, van´t Hoff transition enthalpy of sharp component / Tm_sharp_pcpg, transition temperature of sharp component: 2:1 DMPC:DMPG LUVs + 4 mol% peptide, 2016 dataset
# [3] = DSC of DMPC LUVs with peptide; conditions: 2016 dataset; for Tm_broad_pc, transition temperature of broad component: 0.5 mM DMPC LUVs + 20 μM peptide (4 mol%), pH 7.4, P′β→Lα transition, non-two state fit; for H_broad_pc, transition enthalpy of broad component / H_sharp_pc, transition enthalpy of sharp component / Hv_broad_pc, van´t Hoff transition enthalpy of broad component / Hv_sharp_pc, van´t Hoff transition enthalpy of sharp component / Tm_sharp_pc, transition temperature of sharp component: DMPC LUVs + 4 mol% peptide
# [4] = Far-UV CD, percent helicity in buffer; format: physicochemical; conditions: CD [θ]222 nm, 40 μM peptide in buffer, method of Chen et al., 2016 dataset
# [5] = PCA2 and hierarchical clustering of DSC data; set-up: key: Cluster 1 is composed by molecules with no significant interaction with the evaluated model membranes; Cluster 2 peptides present no detectable interaction with DMPC LUVs but disturb the main phase transition of 2:1 DMPC:DMPG LUVs; Cluster 3: Clusters 3 and 4 are populated by IAPs and AMPs that alter the main phase transition DMPC and 2:1 DMPC:DMPG LUVs and present significant and broad antimicrobial activity; Cluster 4: Clusters 3 and 4 are populated by IAPs and AMPs that alter the main phase transition DMPC and 2:1 DMPC:DMPG LUVs and present significant and broad antimicrobial activity; Cluster 5: The peptide cluster 5 is composed solely of AMPs; conditions: cluster membership from HCA of first five principal components of PCA2 (DSC data)
# [6] = Far-UV CD, percent helicity with 2:1 DMPC:DMPG LUVs; format: physicochemical; conditions: CD [θ]222 nm, 40 μM peptide + 2:1 DMPC:DMPG LUVs, 2016 dataset
Sequence,% Helicity 0.01 peptide/DMPC (mol/mol) [1] [%],"Tm_broad_pcpg, transition temperature of broad component [2] [°C]","H_broad_pcpg, transition enthalpy of broad component [2] [kcal/mol]","H_sharp_pcpg, transition enthalpy of sharp component [2] [kcal/mol]","Hv_broad_pcpg, van´t Hoff transition enthalpy of broad component [2] [kcal/mol]","Hv_sharp_pcpg, van´t Hoff transition enthalpy of sharp component [2] [kcal/mol]","Tm_sharp_pcpg, transition temperature of sharp component [2] [°C]","Tm_broad_pc, transition temperature of broad component [3] [°C]","H_broad_pc, transition enthalpy of broad component [3] [kcal/mol]","H_sharp_pc, transition enthalpy of sharp component [3] [kcal/mol]","Hv_broad_pc, van´t Hoff transition enthalpy of broad component [3] [kcal/mol]","Hv_sharp_pc, van´t Hoff transition enthalpy of sharp component [3] [kcal/mol]","Tm_sharp_pc, transition temperature of sharp component [3] [°C]",% Helicity (Buffer) [4] [%],Cluster [5],% Helicity 0.01 peptide/(2:1 DMPC/DMPG) (mol/mol) [6] [%]
"ANRLLEAYKMLLKFLGNLR [Gr02, putative IAP, KJB26672.1 (254–272)]",50.5,24.93,2987,2606,105100,313200,21.34,25.09,3574,772,91960,310200,22.06,56.7,Cluster 4,64.2
"FFYNVIKIYGNMAGRISK [Cs03, putative IAP, KDO49351.1 (129–146)]",,,,,,,,,,,,,,,Cluster 2,
"GAKLAKKQVRALGKFFSF [At03, putative IAP, NP_176750.1 (209–226)]",-1.2,,,,,,,,,,,,,-1.2,Cluster 1,30.8
"GFKDLLKGAAKALVKTVLF [Asc-8, Ascaphin 8, reference compound]",74.2,,,,,,,,,,,,,2.7,Cluster 4,88.5
"GFKLGRKLVKVFKWII [Gr01, putative IAP, XP_012439503.1 (6–21)]",57.7,,,,,,,,,,,,,0.9,Cluster 3,115.0
"GIVLKDLFSEKLRRYKIVIG [Tc09, putative IAP, EOY11242.1 (688–707)]",19.3,,,,,,,,,,,,,12.3,Cluster 2,-0.8
"GKILKYLLYLLRKYANLIIR [Tc02, putative IAP, EOX91068.1 (202–221)]",65.6,,,,,,,23.55,5200,1461,84750,272000,21.94,60.4,Cluster 4,77.0
"GLLFKELQKLIRYQIFIGK [Tc10, putative IAP, EOY11257.1 (701–719)]",5.1,,,,,,,23.20,4147,2638,177000,539000,23.68,20.3,Cluster 2,49.6
"GLYNFIKVLGRTVFGLYKQF [At04, putative IAP, NP_176750.1 (334–353)]",,,,,,,,23.78,3819,1297,257000,799000,24.11,,Cluster 1,
"GSLHGFMYKYLKNMVLNLF [Tc06, putative IAP, EOY24636.1 (117–135)]",31.5,24.91,2727,2599,113800,563300,23.43,,,,,,,29.4,Cluster 3,34.9
"GSLHGFMYKYLKNMVLTLF [At01, putative IAP, NP_172734.2 (118–136)]",26.4,,,,,,,,,,,,,32.4,Cluster 3,28.4
"GSLHGFMYKYLKTLVLRLY [Zm01, putative IAP, XP_008663476.1 (153–171)]",42.2,,,,,,,,,,,,,31.0,Cluster 3,65.5
"GSLHGFMYRYLKNMVLNLF [Cs01, putative IAP, XP_006477592.1 (117–135)]",37.8,,,,,,,,,,,,,26.3,Cluster 3,27.5
"IKLRNVLKYLFRIDVIKEDIL [Tc03, putative IAP, Tc05_g014340 (12–32)]",36.8,24.86,2096,820.2,115200,129200,20.02,,,,,,,40.4,Cluster 4,50.7
"IVNHLVKLFDKGLNSIVNLR [Tc05, putative IAP, EOY07102.1 (47–66)]",34.9,,,,,,,,,,,,,8.3,Cluster 2,68.8
"KVLSKVHTLLKAVLAL [At02, putative IAP, SIP121-0-PQ4 (45–60)]",32.6,,,,,,,25.10,2915,3114,125000,500300,23.35,13.3,Cluster 3,79.8
"LHRLVKLVAALLRGYASKVDTH [Tc08, putative IAP, EOY11557.1 (289–310)]",40.4,,,,,,,,,,,,,9.0,Cluster 4,62.1
"LIKVVNHVQYNVTLHWHGIR [Tc07, putative IAP, EOY07477.1 (79–98)]",,,,,,,,23.28,4043,2363,199800,664100,23.94,,Cluster 1,
"RVLKDVESALRESVANWKIVIG [Tc04, putative IAP, EOY21465.1 (193–214)]",15.8,,,,,,,23.29,3780,2686,190000,607000,23.93,14.3,Cluster 1,36.3
"VALRLAKEVIKVQQGW [Tc01, putative IAP, EOX93337.1 (95–110)]",4.5,,,,,,,23.32,3988,2392,202000,649000,23.94,5.0,Cluster 3,64.8
VWTTAMEKSSAANFSMSRNQRRSSLHSL [gb|AAD22970.1|(120-148)],,,,,,,,,,,,,,,Cluster 2,
